Laboratory results: ChEMBL document CHEMBL1155893 (J Med Chem, 2008)

Amino acid sequences for entries named in this document (tags omitted). Residues count along the entry.
UniProt P0DPI0, 2-448 limits assumed: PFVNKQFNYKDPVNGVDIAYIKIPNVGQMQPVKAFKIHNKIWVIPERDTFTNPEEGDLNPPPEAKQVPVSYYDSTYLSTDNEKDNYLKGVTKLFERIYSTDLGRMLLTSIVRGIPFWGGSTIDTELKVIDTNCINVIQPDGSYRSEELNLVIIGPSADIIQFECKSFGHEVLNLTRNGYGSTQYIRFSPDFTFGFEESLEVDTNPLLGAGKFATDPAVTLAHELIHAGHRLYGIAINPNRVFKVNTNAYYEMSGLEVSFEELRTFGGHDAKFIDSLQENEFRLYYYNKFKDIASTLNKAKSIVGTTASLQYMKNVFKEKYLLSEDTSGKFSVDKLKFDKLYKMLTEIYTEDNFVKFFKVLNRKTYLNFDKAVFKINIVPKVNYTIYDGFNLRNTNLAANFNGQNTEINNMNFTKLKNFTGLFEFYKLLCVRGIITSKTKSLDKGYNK

Target: Botulinum neurotoxin type A (Clostridium botulinum, UniProt P0DPI0)
Experiment: Inhibition of Clostridium botulinum neurotoxin serotype A light chain metalloprotease activity

**Q.** With `CC(=O)O[C@@H]1CC[C@@]2(C)[C@@H](C1)C[C@@H](OC(C)=O)[C@@H]1[C@@H]2C[C@H](OC(C)=O)[C@]2(C)[C@@H]([C@H](C)CCCNCCNc3ccnc4cc(Cl)ccc34)CC[C@@H]12` as the compound, how does the IC50 read?
**A.** Its IC50 is 10 µM.

**Q.** How did the IC50 turn out when `Clc1ccc2c(NCCNCC34CC5CC(CC(C5)C3)C4)ccnc2c1` was run?
**A.** The IC50 was 18.9 µM.

**Q.** Which IC50 does the source give for `Clc1ccc2c(NCCCNCC34CC5CC(CC(C5)C3)C4)ccnc2c1` here?
**A.** The IC50 was 32 µM.

**Q.** For `Clc1ccc2c(NCCCNCCC34CC5CC(CC(C5)C3)C4)ccnc2c1`, which IC50 is on record?
**A.** The IC50 was 50.1 µM.

**Q.** `Clc1ccc2c(NCCNCCC34CC5CC(CC(C5)C3)C4)ccnc2c1` was tested. Which IC50 did it give?
**A.** The IC50 was 11.8 µM.
